Anti-infective test results gathered from many reports (values: NIAID ChemDB through PubChem).

All rows: enzyme or target tests; species: Hepatitis C virus; protein: NS5B polymerase

Neighbouring rows are from separate reports. ICn: concentration for n% inhibition. Two numbers with a dash give a range or band.

{"structure": "O=C(O)Cc1ccc(NC(=O)c2ccc3c(c2)nc(-c2ccoc2)n3C2CCCCC2)cc1", "endpoint": "IC50", "result": "10–25 µM"}
{"structure": "O=C(O)/C=C/c1ccc(NC(=O)C(Cc2ccccc2)NC(=O)c2ccc3c(c2)nc(-c2ccoc2)n3C2CCCCC2)cc1", "endpoint": "IC50", "result": "0.5–5 µM"}
{"structure": "CCCC1(CC(=O)O)CCCC2c3c(F)cc(F)cc3NC21", "endpoint": "IC50", "result": "30 µM"}
{"structure": "O=C(O)c1cccc(NC(=O)N2CCC(NC(=O)c3ccc4c(c3)nc(-c3ccoc3)n4C3CCCCC3)CC2)c1", "endpoint": "IC50", "result": "10–25 µM"}
{"structure": "Cc1ccc(-c2nc3cc(C(=O)N[C@@H](Cc4c[nH]c5ccc(O)cc45)C(=O)O)ccc3nc2-c2ccc(Cl)cc2)cc1", "endpoint": "IC50", "result": "<10 µM"}
{"structure": "C[C@@H]1CCC[C@@H](C)C1n1c(-c2ccoc2)nc2cc(C(=O)N[C@@H](Cc3c[nH]c4ccc(O)cc34)C(=O)O)ccc21", "endpoint": "IC50", "result": "<1 µM"}
{"structure": "Nc1ccc(C(=O)N/C(=C\\c2ccc(-c3ccccc3)o2)C(=O)O)cc1", "endpoint": "IC50", "result": ">30 µM"}
{"structure": "CCCCc1ccc(C(=O)O)c(Nc2ccc(N3CCNCC3)cc2)n1", "endpoint": "IC50", "result": "3 µg/mL"}
{"structure": "O=C(O)c1nc(-c2cccs2)nc2nc[nH]c12", "endpoint": "IC50", "result": ">50 µM"}
{"structure": "CCN(CC)c1ccc(Nc2cc(N3CCN(C(=O)c4ccncc4)CC3)nc(SCc3ccccc3)n2)cc1", "endpoint": "IC50", "result": "3 µg/mL"}
{"structure": "O=C(O)c1ccc2nc(-c3ccc(F)cc3)c(-c3ccc(F)cc3)nc2c1", "endpoint": "IC50", "result": "<10 µM"}
{"structure": "O=C(N[C@H](C(=O)O)c1ccc(O)cc1)c1ccc2c(c1)nc(-c1ccoc1)n2C1CCCCC1", "endpoint": "IC50", "result": "<1 µM"}
{"structure": "O=C(O)c1nc(-c2ncc[nH]2)[nH]c(=O)c1O", "endpoint": "IC50", "result": "50 µM"}
{"structure": "O=C(N[C@H](C(=O)O)c1c[nH]c2ccc(O)cc12)c1ccc2c(c1)nc(Cc1ccccc1)n2C1CCCCC1", "endpoint": "IC50", "result": "1–5 µM"}
{"structure": "NC(=O)c1nccn([C@@H]2O[C@H](CO)[C@@H](O)[C@H]2O)c1=O", "endpoint": "IC50", "result": "0.1 µM"}
{"structure": "O=C(N[C@H](Cc1c[nH]c2ccc(O)cc12)C(=O)O)c1ccc2c(c1)nc(-c1ccoc1)n2C1CCCCC1", "endpoint": "IC50", "result": "<1 µM"}
{"structure": "C=C[C@@H]1C[C@]1(NC(=O)c1ccc2c(c1)nc(-c1ccoc1)n2C1CCCCC1)C(=O)Nc1ccc(/C=C/C(=O)O)cc1", "endpoint": "IC50", "result": "<0.5 µM"}
{"structure": "O=C(N[C@H](C(=O)O)c1c[nH]c2ccc(O)cc12)c1ccc2c(c1)nc(/C=C/c1ccc([N+](=O)[O-])cc1)n2C1CCCCC1", "endpoint": "IC50", "result": "1–5 µM"}
{"structure": "O=C(O)/C(=C/c1ccc(-c2ccccc2Cl)s1)NC(=O)c1ccco1", "endpoint": "IC50", "result": "<10 µM"}
{"structure": "O=C(O)c1nc(-c2cccs2)ncc1O", "endpoint": "IC50", "result": ">50 µM"}
{"structure": "Cc1ccc(-c2nc3cc(C(=O)O)ccc3nc2-c2ccc(Cl)cc2)cc1", "endpoint": "IC50", "result": "<10 µM"}
{"structure": "CCCC1(CC(=O)O)CCCC2c3cc(Cl)ccc3NC21", "endpoint": "IC50", "result": ">33 µM"}
{"structure": "O=C(O)/C(=C/c1ccc(-c2ccccc2)o1)NC(=O)c1ccccc1O", "endpoint": "IC50", "result": "11–30 µM"}
{"structure": "CNc1nc(C[C@H](Cc2ccc(OCC(=O)O)cc2)NC(=O)c2ccc3c(c2)nc(-c2ccoc2)n3C2CCCCC2)cs1", "endpoint": "IC50", "result": "1–5 µM"}
{"structure": "CC1CCC(C(=O)C(=O)N(c2cc(-c3ccccc3)sc2C(=O)O)C(C)C)CC1", "endpoint": "IC50", "result": "0.29 µM"}
{"structure": "O=C(NC1(C(=O)Nc2ccc3oc(=O)ccc3c2)CCCC1)c1ccc2c(c1)nc(-c1ccoc1)n2C1CCCCC1", "endpoint": "IC50", "result": "5–25 µM"}
{"structure": "O=C(N[C@@H](Cc1c[nH]c2ccc(O)cc12)C(=O)O)c1ccc2c(c1)nc(-c1ccoc1)n2[C@@H]1CC2CCC1C2", "endpoint": "IC50", "result": "<1 µM"}
{"structure": "O=C(N[C@@H](Cc1c[nH]c2ccccc12)C(=O)O)c1ccc2nc(-c3ccccn3)c(-c3ccccn3)nc2c1", "endpoint": "IC50", "result": ">50 µM"}
{"structure": "N#Cc1c(Cl)cc(Cl)cc1Oc1ccccc1C(=O)CC(=O)C(=O)O", "endpoint": "IC50", "result": "0.056–83.5 µM"}
{"structure": "CCCCOC(=O)c1ccc(CC)nc1Nc1ccc(N2CCOCC2)cc1", "endpoint": "IC50", "result": "3 µg/mL"}
{"structure": "O=C(O)c1nc(C2CCCCC2)[nH]c(=O)c1O", "endpoint": "IC50", "result": ">200 µM"}
{"structure": "O=C(O)c1cnc(N(C(=O)c2ccc(Oc3ccccc3)cc2)C2CCCCC2)s1", "endpoint": "IC50", "result": "5.5 µM"}
{"structure": "COc1ccc([C@@H](C)NC(=O)c2ccc3c(c2)nc(-c2ccccn2)n3C2CCCCC2)cc1OC", "endpoint": "IC50", "result": "1–5 µM"}
{"structure": "CS(=O)(=O)Nc1nc(-c2cccs2)nc(C(=O)O)c1O", "endpoint": "IC50", "result": ">50 µM"}
{"structure": "[N-]=[N+]=Nc1ccc(C(=O)NCCC(=O)COc2ccc(-c3nc4cc(C(=O)N[C@@H](Cc5c[nH]c6ccc(OCC(=O)O)cc56)C(=O)O)ccc4n3C3CCCCC3)cc2)cc1", "endpoint": "IC50", "result": "<1 µM"}
{"structure": "O=C(O)c1ccc2c(c1)nc(-c1ccc(OCc3cc(C(=O)N4CCC(O)CC4)ccc3-c3ccc(Cl)cc3)cc1F)n2C1CCCCC1", "endpoint": "Ki", "result": "0.12 µM"}
{"structure": "O=C(O)COc1ccc2[nH]cc(C[C@H](NC(=O)c3ccc4c(c3)nc(-c3ccc(OCC(=O)CCNC(=O)c5ccc(C(=O)c6ccccc6)cc5)cc3)n4C3CCCCC3)C(=O)O)c2c1", "endpoint": "IC50", "result": "<1 µM"}
{"structure": "O=C(NS(=O)(=O)Cc1ccccc1)c1nc(-c2cccs2)[nH]c(=O)c1O", "endpoint": "IC50", "result": ">50 µM"}
{"structure": "CCOc1cc([C@@H](C)NC(=O)c2ccc3c(c2)nc(-c2ccco2)n3C2CCCCC2)ccc1OC", "endpoint": "IC50", "result": "5–10 µM"}
{"structure": "Cc1ccc(Nn2c(=O)c(C3=NS(=O)(=O)c4ccccc4N3)c(O)c3cccnc32)cc1", "endpoint": "IC50", "strain or isolate": "Genotype 1A", "result": ">5 µM"}
{"structure": "O=C(O)/C(=C/c1ccc(-c2ccccc2Cl)s1)NC(=O)c1ccc([N+](=O)[O-])cc1", "endpoint": "IC50", "result": "<10 µM"}
{"structure": "O=C(N[C@@H](Cc1c[nH]c2ccc(O)cc12)C(=O)O)c1ccc2nc(-c3ccccc3)c(-c3ccccc3)nc2c1", "endpoint": "IC50", "result": ">50 µM"}
{"structure": "CCCC1(CC(=O)O)CCCC2c3c(F)ccc(F)c3NC21", "endpoint": "IC50", "result": ">33 µM"}
{"structure": "O=C(O)/C=C/c1ccc(NC(=O)C2(NC(=O)c3ccc4c(c3)nc(-c3ccccn3)n4C3C[C@H]4CC[C@@H]3C4)CCCC2)cc1", "endpoint": "IC50", "result": "<0.5 µM"}
{"structure": "C=C[C@H]1C(C(=O)O)[C@@H]1NC(=O)c1ccc2c(c1)nc(-c1ccccn1)n2C1CCCCC1", "endpoint": "IC50", "result": "10–25 µM"}
{"structure": "CCSc1nc(N2CCN(C(=O)c3ccccc3)CC2)cc(N(C)c2ccc(N(C)C)cc2)n1", "endpoint": "IC50", "result": "3 µg/mL"}